Test results: PMC4963854 (Toxins, 2016)
One purity is given for all peptides; the source may state it once.

assay: general procedure: Fmoc solid-phase peptide synthesis; 2-chloro-2-trityl chloride resin (f = 1.18 mmol/g); HOBt and DIC; conditions: whole synthesis, HPLC, UV 210 nm, scale of the general procedure 200 mg resin

Final HPLC purity, 100%:
Ac-ERYKTMYADD
Fluorescein‐DNLEE
Fluorescein‐DNLNHEELIQ
Fluorescein‐LNANHEELIQ
Fluorescein‐NDNLEE

same assay, conditions: whole synthesis, UV, scale of the general procedure 200 mg resin

Final HPLC purity, 100%:
Ac-FENRLNDNHEELIQ
Ac-GDTSLRSAEFEETQ
Ac-GSGDTSLRSAEFEETQ
Ac-LNDNHEELIQ
Ac-LRSAEFEETQ
Ac-TRKQFENRLNDNHEELIQ
Fluo-ERYKTMYADD
Fluo-FENRLNDNHEELIQ
Fluo-GDTSLRSAEFEETQ
Fluo-GSGDTSLRSAEFEETQ
Fluo-HGTIERYKTMYADD
Fluo-INSYHGTIERYKTMYADD
Fluo-LNDNHEELIQ
Fluo-LRSAEFEETQ
Fluo-TRKQFENRLNDNHEELIQ

same assay, conditions: whole synthesis, scale of the general procedure 200 mg resin

Isolated yield, 45%:
Fluorescein‐DNLNHEELIQ

Isolated yield, 65%:
Fluorescein‐LNANHEELIQ
